{"source": "paper PMC12384620", "about": "“Hit-to-Lead Studies of Pyrazinylpiperazines against Visceral Leishmaniasis: Pharmacokinetic Profile and In Vivo Efficacy of Potent Compounds against Leishmania infantum” (ACS Pharmacology & Translational Science, 2025)", "key": {"L. infantum": {"tested_on": "L. infantum", "test": "Antileishmanial activity against L. infantum amastigotes in THP-1 macrophages", "assay_type": "cell-based, Leishmania infantum", "conditions": "selectivity index, CC50 (THP-1) / IC50 (L. infantum)", "procedure": "The in vitro anti-L. infantum activity (IC50) of each compound was evaluated on THP-1 cells (human leukemia monocytic cell line) infected with L. infantum promastigotes, and the in vitro cytotoxicity (CC50) was determined over the THP-1 cell line. The selectivity index (SI) was calculated as the ratio of the CC50 value determined in the cytotoxicity assay, divided by the IC50 value determined in the antileishmanial activity assay.\nCells derived from the human monocytic strain THP-1 were cultured in complete Rowell Park Memorial Institute (RPMI)-1640 medium (supplemented with 10% fetal bovine serum, 100 U/mL penicillin, and 100 μg/mL streptomycin). Monocytes were differentiated into macrophages by the addition of 20 ng/mL phorbol myristate acetate (PMA). After 72 h, the macrophages (5 × 10^4), in black 96-well microtiter plates (Corning Incorporated, Corning, NY), were infected with Leishmania (Leishmania) infantum (MHOM/BR/1974/PP75) promastigotes transfected with gene tdTomato, on the second day of the stationary phase (20 parasites per macrophage) for 4 h. […] The IC50 values were determined by nonlinear regression using a variable slope model (log(concentration) vs growth inhibition) with the GraphPadPrism v8.2.0 (CA, USA) software. Controls with uninfected cells, untreated infected cells, and infected cells treated with amphotericin B at 0.25 μM (positive control) or DMSO 1% were used. Quadruplicates were run on the same plate, and the experiments were repeated at least once."}, "L. braziliensis": {"tested_on": "L. braziliensis", "test": "Inhibition of growth of L. braziliensis in THP-1 macrophages", "assay_type": "cell-based, Leishmania braziliensis", "conditions": "selectivity index, CC50 (THP-1) / IC50 (L. braziliensis)", "description": "1 In Vitro Antileishmanial Potency, Selectivity Index, and ADME Properties of Compounds 1 – 6 | column: L. braziliensis IC50 (μM)^b (SI)^b"}}, "data": [{"smiles": "C[C@@H]1[C@H](O)[C@@H](C)/C=C/C=C/C=C/C=C/C=C/C=C/C=C/[C@H](O[C@@H]2O[C@H](C)[C@@H](O)[C@H](N)[C@@H]2O)C[C@@H]2O[C@](O)(C[C@@H](O)C[C@@H](O)[C@H](O)CC[C@@H](O)C[C@@H](O)CC(=O)O[C@H]1C)C[C@H](O)[C@H]2C(=O)O", "note": "[AmB, Amphotericin B, reference compound]", "values": [{"measurement": "SI (L. infantum)", "setting": "L. infantum", "result": 1455}, {"measurement": "SI (L. braziliensis)", "setting": "L. braziliensis", "result": 2798}]}, {"smiles": "O=C(c1ccc(O)c(Cl)c1)N1CCN(c2cnccn2)CC1", "note": "[Compound 1, (3-Chloro-4-hydroxyphenyl)(4-(pyrazin-2-yl)piperazin-1-yl)methanone]", "values": [{"measurement": "SI (L. infantum)", "setting": "L. infantum", "result": 46}, {"measurement": "SI (L. braziliensis)", "setting": "L. braziliensis", "result": 46}]}, {"smiles": "O=C(c1ccc(O)cc1)N1CCN(c2cnccn2)CC1", "note": "[Compound 2, (4-Hydroxyphenyl)(4-(pyrazin-2-yl)piperazin-1-yl)methanone]", "values": [{"measurement": "SI (L. infantum)", "setting": "L. infantum", "result": 346}, {"measurement": "SI (L. braziliensis)", "setting": "L. braziliensis", "result": 141}]}, {"smiles": "COc1ccc(C(=O)N2CCN(c3cnccn3)CC2)cc1", "note": "[Compound 3, (4-Methoxyphenyl)(4-(pyrazin-2-yl)piperazin-1-yl)methanone]", "values": [{"measurement": "SI (L. infantum)", "setting": "L. infantum", "result": 422}, {"measurement": "SI (L. braziliensis)", "setting": "L. braziliensis", "result": 188}]}, {"smiles": "Nc1ccc(C(=O)N2CCN(c3cnccn3)CC2)cn1", "note": "[Compound 4, (6-Aminopyridin-3-yl)(4-(pyrazin-2-yl)piperazin-1-yl)methanone]", "values": [{"measurement": "SI (L. infantum)", "setting": "L. infantum", "result": 524}, {"measurement": "SI (L. braziliensis)", "setting": "L. braziliensis", "result": 224}]}, {"smiles": "O=C(c1ccc2cc(O)ccc2c1)N1CCN(c2cnccn2)CC1", "note": "[Compound 5, (6-Hydroxynaphthalen-2-yl)(4-(pyrazin-2-yl)piperazin-1-yl)methanone]", "values": [{"measurement": "SI (L. infantum)", "setting": "L. infantum", "result": 241}, {"measurement": "SI (L. braziliensis)", "setting": "L. braziliensis", "result": 306}]}, {"smiles": "O=C(c1cccc(O)c1O)N1CCN(c2cnccn2)CC1", "note": "[Compound 6, (2,3-Dihydroxyphenyl)(4-(pyrazin-2-yl)piperazin-1-yl)methanone]", "values": [{"measurement": "SI (L. infantum)", "setting": "L. infantum", "result": "> 1189"}, {"measurement": "SI (L. braziliensis)", "setting": "L. braziliensis", "result": "> 16650"}]}]}
